Pooled drug test results. Numbers come from NIAID ChemDB, via PubChem.

All rows: tests in culture; agent: HIV-1

Neighbouring rows are from separate reports.

smiles	cells	dose	conditions	read by	strain	endpoint	mutations	value
CC[C@H](C)[C@H](C(=O)O)N1C[C@H](CN2CCC(c3cc(Cc4cccc(C#N)c4)nn3CC)CC2)[C@@H](c2cccc(F)c2)C1	HeLa		50% human serum	β-galactosidase	BaL	EC90		0.011 µM
Cc1cn([C@H]2C[C@H](N=[N+]=[N-])[C@@H](CO)O2)c(=O)[nH]c1=O	CEM + CEM-SS			XTT	NL4-3 1 (RT K101E)	EC50	RT-K101E	0.002 µM
Cc1ccnc2c1NC(=O)c1cccnc1N2C1CC1	MAGI			β-galactosidase	NNRTI-resistant (RT V106M)	EC50	RT-V106M	2.9 µM
CC(C)(C)NC(=O)[C@@H]1C[C@@H]2CCCC[C@@H]2CN1C[C@@H](O)[C@H](Cc1ccccc1)NC(=O)[C@H](CC(N)=O)NC(=O)c1ccc2ccccc2n1	MT-4			p24	NL4-3	EC95	PR-L63P V82T	0.025 µM
CCn1nc(Cc2cc(F)cc(F)c2)cc1C1CCN(C[C@H]2CN([C@@H](C(=O)O)C3CCCCC3)C[C@@H]2c2cccc(F)c2)CC1	HeLa		50% human serum	β-galactosidase	BaL	EC90		0.011 µM
Cc1ccnc2c1NC(=O)c1cccnc1N2C1CC1	CEM + CEM-SS			XTT	Pyridinone-resistant (RT K103N Y181C)	EC50	RT-Y181C L103N	>38 µM
CC(C)CN(C[C@@H](O)[C@H](Cc1ccccc1)NC(=O)[C@H](CC(N)=O)NC(=O)c1ccc2ccccc2n1)C(=O)NC(C)(C)C	MT-4			p24	NL4-3	EC95	PR-M46I L63P	0.2 µM
O=C1N(Cc2ccc(CO)cc2)[C@H](Cc2ccccc2)[C@H](O)[C@@H](O)[C@@H](Cc2ccccc2)N1Cc1ccc(CO)cc1	PBMC	0.16 µM		p24	RF	inhibition		90%
CC(C)(C)NC(=O)[C@@H]1C[C@@H]2CCCC[C@@H]2CN1C[C@@H](O)[C@H](Cc1ccccc1)NC(=O)[C@H](CC(N)=O)NC(=O)c1ccc2ccccc2n1	MT-4			p24	NL4-3	EC90	PR-D30N	0.01 µM
CCn1nc(Cc2ccc(Oc3ccccc3)cc2)cc1C1CCN(C[C@H]2CN([C@@H](C(=O)O)C(C)C)C[C@@H]2c2cccc(F)c2)CC1	HeLa			β-galactosidase	BaL	EC90		0.011 µM
Cc1cn([C@H]2C[C@H](N=[N+]=[N-])[C@@H](CO)O2)c(=O)[nH]c1=O	HeLa			luciferase	NRTI resistant	fold resistance	RT-M41L E44D D67N T69D V118I L210W T215Y	389.1
CC(C)=CCN1c2cc(Cl)cc3[nH]c(=S)n(c23)C[C@@H]1C	MT-4					EC95	RT-D67N K70R T215Y K219Q L100I	0.2 µM
CC[C@@H](C)[C@H](C(=O)O)N1C[C@H](CN2CCC(c3cc(Cc4cccc5ccccc45)nn3CC)CC2)[C@@H](c2cccc(F)c2)C1	HeLa			β-galactosidase	BaL	EC90		<0.00014 µM
CC(C)=CCOc1cc(NC(=S)c2ccsc2C)ccc1Cl	CEM + CEM-SS			XTT	Calanolide A-resistant (RT T139I)	EC50	RT-T139I	0.03 µM
c1cc(CN2CCCNCCNCCCNCC2)ccc1CN1CCCNCCNCCCNCC1	PBMC	0.5 µM		p24	SW29 CLADE C R5	inhibition		13%
CCn1nc(Cc2cccc(OC)c2)cc1C1CCN(C[C@H]2CN([C@@H](C(=O)O)C(C)(C)C)C[C@@H]2c2cccc(F)c2)CC1	HeLa			β-galactosidase	BaL	EC90		<0.00014 µM
CCCc1cc(=O)oc2c3c(c4c(c12)OC(C)(C)C=C4)O[C@@H](C)[C@H](C)[C@@H]3O	CEM + CEM-SS			XTT	SK1	EC50		0.06 µM
CC[C@H](C)[C@H](C(=O)O)N1C[C@H](CN2CCC(c3cc(Cc4cc(C(F)(F)F)cc(C(F)(F)F)c4)nn3CC)CC2)[C@@H](c2cccc(F)c2)C1	HeLa			β-galactosidase	BaL	EC90		0.011 µM
Cn1c2ccccc2c2c1cc(C#N)c(=O)n2-c1ccc([N+](=O)[O-])cc1	HeLa			luciferase	NRTI resistant	EC50	RT-K65R K70R V75I F77L F116Y Q151M	0.043 µM
CCn1nc(Cc2ccc(OC)cc2)cc1C1CCN(C[C@H]2CN([C@@H](C(=O)O)C3CCCCC3)C[C@@H]2c2cccc(F)c2)CC1	HeLa			β-galactosidase	BaL	EC90		<0.00014 µM
C[C@H](Cn1cnc2c(N)ncnc21)OCP(=O)(O)O	HeLa			luciferase	Recombinant	fold resistance	RT-M41L A62V S68N G112S V118I M184V	0.4

The last 2 rows once more:

smiles | cells | dose | conditions | read by | strain | endpoint | mutations | value
CCn1nc(Cc2ccc(OC)cc2)cc1C1CCN(C[C@H]2CN([C@@H](C(=O)O)C3CCCCC3)C[C@@H]2c2cccc(F)c2)CC1 | HeLa |  |  | β-galactosidase | BaL | EC90 |  | <0.00014 µM
C[C@H](Cn1cnc2c(N)ncnc21)OCP(=O)(O)O | HeLa |  |  | luciferase | Recombinant | fold resistance | RT-M41L A62V S68N G112S V118I M184V | 0.4

Inhibition is in % at the dose shown (toxicity tests: loss of growth or viability). ECn: concentration that inhibits the pathogen or its effect by n%. Fold resistance has wild type as its base. Blank or dashed fields: not listed here.